Measured values from several laboratories, pooled; numbers as filed in NIAID ChemDB.

Shared fields: enzyme or target tests; species: Hepatitis C virus; protein: RNA-dependent RNA polymerase; endpoint: IC50

ICn: concentration for n% inhibition. a–b is a range or a potency band. Neighbouring rows are from separate reports.

compound,result
COc1cc(C(=O)N2[C@@H](c3cccs3)[C@H](C#N)C[C@@]2(CC(C)C)C(=O)O)ccc1C(C)(C)C,<10 µM
CC(C)CNC(=O)C1=C[C@@](CC(C)C)(C(=O)O)N(C(=O)c2ccc(C(C)(C)C)cc2)[C@H]1c1nccs1,<50 µM
O=C(O)C(Cc1ccccc1)N(Cc1cc(-c2cc(F)cc(F)c2)cs1)C(=O)c1ccc(Cl)cc1Cl,<5 µM
CC(C)C[C@@]1(C(=O)O)C=C(C(N)=O)[C@H](c2nccs2)N1C(=O)c1ccc(C(C)(C)C)c(Br)c1,<50 µM
COc1cc(C(=O)N2[C@@H](c3cscn3)[C@@H](c3nc(C)no3)C[C@@]2(CC(C)C)C(=O)O)ccc1C(C)(C)C,<50 µM
O=C(O)C(Cc1ccccc1)N(Cc1ccc(-c2cc(F)cc(F)c2)s1)C(=O)c1ccc(Cl)cc1Cl,<5 µM
CC(C)C[C@@]1(C(=O)O)C[C@@H](c2ncn[nH]2)[C@H](c2nccs2)N1C(=O)c1ccc(C(C)(C)C)cc1,<50 µM
C[N+]1(Cc2ccccc2)CCN(/N=C\c2ccc(O)c(O)c2O)CC1,30–40 µM
COc1cc(C(=O)N2[C@@H](c3nccs3)[C@H](C#N)C[C@@]2(CC(C)C)C(=O)O)ccc1C(C)(C)C,<10 µM
Cc1ccc(C(=O)NCc2cccnc2)c(Nc2ccc3[nH]ncc3c2)n1,<1 µg/mL
CC(C)C[C@@]1(C(=O)O)C[C@@H](c2nncs2)[C@H](c2nccs2)N1C(=O)c1ccc(C(C)(C)C)cc1,<50 µM
COc1ccc(-c2ccc(CN(C(=O)c3ccc(Cl)cc3Cl)C(Cc3ccccc3)C(=O)O)o2)cc1,<5 µM
Cc1ccc(C(=O)NN2CCN(C)CC2)c(Nc2ccc3cn[nH]c3c2)n1,<1 µg/mL
CC(C)C[C@@]1(C(=O)O)C=C(C(=O)NCC2CCCCC2)[C@H](c2nccs2)N1C(=O)c1ccc(C(C)(C)C)cc1,<50 µM
COc1cc(C(=O)N2[C@@H](c3nccs3)[C@H](c3noc(C)n3)C[C@@]2(CC(C)C)C(=O)O)ccc1C(C)(C)C,<50 µM
CC1=C(C(N)=O)[C@H](c2nccs2)N(C(=O)c2ccc(C(C)(C)C)cc2)[C@]1(CC(C)C)C(=O)O,<50 µM
Cc1ccc(C(=O)NN2CCOCC2)c(Nc2ccc3[nH]ncc3c2)n1,<0.1 µg/mL
C=CCN(C(=O)c1ccc(Cl)cc1Cl)[C@@H](Cc1ccccc1)C(=O)O,5–20 µM
CC(C)C[C@@]1(C(=O)O)C[C@H](C#N)[C@H](c2nccs2)N1C(=O)c1ccc(C(C)(C)C)cc1,<10 µM
O=C(O)[C@H](Cc1ccccc1)N(Cc1ccc(-c2ccccc2[N+](=O)[O-])o1)C(=O)c1ccc(Cl)cc1Cl,<5 µM
O=C(O)c1cc2nc(-c3ccc(Oc4ccccc4)cc3)cc(-c3ccc(Oc4ccccc4)cc3)n2n1,1–10 µM
COc1cc(C(=O)N2[C@@H](c3nccs3)[C@](C)(c3noc(C)n3)C[C@@]2(CC(C)C)C(=O)O)ccc1C(C)(C)C,<50 µM
CC(C)C[C@@]1(C(=O)O)C=C(C(=O)NCCC(N)=O)[C@H](c2nccs2)N1C(=O)c1ccc(C(C)(C)C)cc1,<50 µM
Cc1ccc(C(=O)NC(C)C)c(Nc2ccc3cn[nH]c3c2)n1,<1 µg/mL
Oc1ccc(/C=N\N2CCOCC2)c(O)c1O,30–40 µM
CC(C)C[C@@]1(C(=O)O)C=C(C(=O)O)[C@H](c2nccs2)N1C(=O)c1ccc(C(C)(C)C)c(Br)c1,<50 µM
O=C(O)C(Cc1ccccc1)N(Cc1sc(Br)cc1Br)C(=O)c1ccc(Cl)cc1I,<5 µM
COc1cc(C(=O)N2[C@@H](c3nccs3)[C@@H](C#N)C[C@@]2(CC(C)C)C(=O)O)ccc1C(C)(C)C,<10 µM
O=C(O)C(Cc1ccccc1)N(Cc1cc(-c2ccncc2)cs1)C(=O)c1ccc(Cl)cc1Cl,<5 µM
COc1cc(C(=O)N2[C@@H](c3nccs3)[C@H](c3nc(C)no3)C[C@@]2(CC(C)C)C(=O)O)ccc1C(C)(C)C,<50 µM
CN1CCN(/N=C\c2ccc(O)c(O)c2)CC1,>400 µM
Cc1ccc(C(=O)Nc2cccnc2)c(Nc2ccc3cn[nH]c3c2)n1,<1 µg/mL
COc1cc(C(=O)N2[C@@H](c3ccccn3)[C@H](C#N)C[C@@]2(CC(C)C)C(=O)O)ccc1C(C)(C)C,<10 µM

4 of the rows above, restated:

{"compound": "O=C(O)C(Cc1ccccc1)N(Cc1ccc(-c2cc(F)cc(F)c2)s1)C(=O)c1ccc(Cl)cc1Cl", "result": "<5 µM"}
{"compound": "O=C(O)C(Cc1ccccc1)N(Cc1cc(-c2ccncc2)cs1)C(=O)c1ccc(Cl)cc1Cl", "result": "<5 µM"}
{"compound": "CC(C)CNC(=O)C1=C[C@@](CC(C)C)(C(=O)O)N(C(=O)c2ccc(C(C)(C)C)cc2)[C@H]1c1nccs1", "result": "<50 µM"}
{"compound": "CC(C)C[C@@]1(C(=O)O)C[C@@H](c2nncs2)[C@H](c2nccs2)N1C(=O)c1ccc(C(C)(C)C)cc1", "result": "<50 µM"}